Reference: patent US6340676B2, “4-aryl-1-oxa-9-thia-cyclopenta (b) fluorenes” (American Home Products Corporation, priority 1998, dated 2002)

Sequences of proteins named here, by UniProt entry; tags and fusion partners are left off. A change or cut given only in a name is not applied to a line headed by its entry.
UniProt P18031: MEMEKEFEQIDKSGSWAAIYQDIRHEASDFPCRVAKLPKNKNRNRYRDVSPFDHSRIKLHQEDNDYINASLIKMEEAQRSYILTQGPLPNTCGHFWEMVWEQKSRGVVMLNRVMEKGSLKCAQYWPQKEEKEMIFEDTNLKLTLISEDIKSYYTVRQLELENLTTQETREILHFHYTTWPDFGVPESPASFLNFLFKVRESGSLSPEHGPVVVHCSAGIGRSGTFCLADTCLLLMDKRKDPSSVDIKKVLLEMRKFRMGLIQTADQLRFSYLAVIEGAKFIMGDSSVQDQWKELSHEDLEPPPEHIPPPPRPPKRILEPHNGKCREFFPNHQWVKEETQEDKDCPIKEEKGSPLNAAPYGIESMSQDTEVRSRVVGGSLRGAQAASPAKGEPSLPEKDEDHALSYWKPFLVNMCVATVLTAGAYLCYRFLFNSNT

Tests used:
[1] = tested on: rat hepatic microsomal PTPases; assay: Inhibition of tri-phosphorylated insulin receptor dodecaphosphopeptide dephosphorylation by rat hepatic PTPases; conditions: PTPase activity; compounds at 50 μM
Human recombinant PTP1B = Human recombinant PTP1B (Homo sapiens, UniProt P18031); assay: Inhibition of tri-phosphorylated insulin receptor dodecaphosphopeptide dephosphorylation by hPTP1B; assay type: biochemical

Phenylarsine oxide was tested, and the “% Change from Control” value [1] was −57.06% and the pIC50 (Human recombinant PTP1B) was 4.40.

pIC50: −log10 of the molar value.
